Only a part is listed here, and it is no random draw. The source made the active and inactive calls.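 How the source made its calls: active means inhibition above the mean inhibition across all screened compounds plus 3 SD (cut at about 11% in these data); inactive means the rest.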

Amino acid sequences for entries named in this document (tags omitted).
UniProt P86926, whole entry: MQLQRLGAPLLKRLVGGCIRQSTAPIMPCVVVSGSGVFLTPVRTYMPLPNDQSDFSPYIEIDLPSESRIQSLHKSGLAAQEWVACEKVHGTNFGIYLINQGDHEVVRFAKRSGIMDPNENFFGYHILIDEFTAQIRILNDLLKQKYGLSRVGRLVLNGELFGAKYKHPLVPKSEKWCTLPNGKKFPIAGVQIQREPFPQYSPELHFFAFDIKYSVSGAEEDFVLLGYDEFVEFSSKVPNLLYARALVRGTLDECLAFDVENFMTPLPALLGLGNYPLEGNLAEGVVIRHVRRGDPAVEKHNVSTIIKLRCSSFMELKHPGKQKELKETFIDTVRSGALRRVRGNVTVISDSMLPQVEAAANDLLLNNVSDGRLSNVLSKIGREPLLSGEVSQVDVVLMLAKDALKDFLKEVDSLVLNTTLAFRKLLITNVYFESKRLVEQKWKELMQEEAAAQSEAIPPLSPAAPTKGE

The assay deals with RNA-editing ligase 1, mitochondrial (Trypanosoma brucei brucei) (UniProt P86926). Briefly: T. brucei editing ligase REL1 blockade – biochemical, FRET fluorescence, primary screen (AID 1117264).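 Further: 0% = plate median of test wells and 100% = NSC42067 control.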 The settings on record: TbREL1 RNA ligation, at 9.66 µM, stronger effect = higher value.
Consider `O=C(NCC1(N2CCCCC2)CCCCC1)c1ccc(=O)[nH]c1`, for which the inhibition is inactive: 5.21%.

Take `O=c1[nH]c2ccccc2n1C1CCN(C(c2cc3ccccc3o2)c2nnnn2C2CCCCC2)CC1` (stereo not drawn): the inhibition was inactive: -1.64%.

With `CCCCn1nnnc1C(c1ccc(OC)cc1)N1CCC(n2c(=O)[nH]c3ccccc32)CC1` (stereo not drawn), the inhibition was inactive: 2.01%.

Turning to `O=c1[nH]c2ccccc2n1C1CCN(C(c2ccccc2)c2nnnn2C2CCCCC2)CC1` (stereo not drawn), the inhibition was inactive: 4.88%.

Take `O=c1[nH]c2ccccc2n1C1CCN(C(c2cccc3ccccc23)c2nnnn2C2CCCC2)CC1` (stereo not drawn): the inhibition is inactive: -0.98%.

Turning to `CC(C)(C)n1nnnc1C(c1ccccc1OC(F)(F)F)N1CCC(n2c(=O)[nH]c3ccccc32)CC1` (stereo not drawn), the inhibition is inactive: 0.27%.

On to `CSc1ccc(C(=O)NCC2(N3CCOCC3)CCCCC2)cc1`, for which the inhibition is inactive: -4.31%.

On to `O=C(NCC1(N2CCOCC2)CCCCC1)c1cc(=O)[nH]c2ccccc12`, for which the inhibition was inactive: 6.26%.

For the compound `CCCCn1nnnc1C(c1cccc2ccccc12)N1CCC(n2c(=O)[nH]c3ccccc32)CC1` (stereo not drawn), the inhibition is inactive: -2.72%.

As to `COC(=O)C1(Nc2ccccc2)CCN(Cc2ccccc2)CC1`, the inhibition is inactive: -0.55%.

Regarding `CN(C)c1cccc(C(=O)NCC2(N3CCCCC3)CCCCC2)c1`, the inhibition was inactive: 2.85%.

In the case of `O=C(NCC1(N2CCOCC2)CCCCC1)c1cc(F)c(F)cc1Cl`, the inhibition was inactive: -0.7%.

Take `O=C(NCC1(N2CCCCC2)CCCCC1)c1cncc(Br)c1`: the inhibition is inactive: 5.12%.

`COc1cc(C(=O)NCC2(N3CCOCC3)CCCCC2)cc(OC)c1C`: the inhibition was inactive: 4.1%.

With `NC(=O)C1(Nc2ccccc2)CCN(Cc2ccccc2)CC1`, the inhibition was inactive: -1.1%.

Consider `N/C(=N\O)c1c(N)no[n+]1[O-]`, for which the inhibition was inactive: 0.88%.

`N#Cc1ccc(C(=O)NCC2(N3CCCCC3)CCCCC2)cc1`: the inhibition is active: 13.5%.

With `O=c1[nH]c2ccccc2n1C1CCN(C(c2ccnc3ccccc23)c2nnnn2C2CCCCC2)CC1` (stereo not drawn), the inhibition is inactive: 0.76%.

For the compound `Cc1ccc(C(=O)NCC2(N3CCCCC3)CCCCC2)o1`, the inhibition is inactive: -1.13%.

With `CC(C)(C)n1nnnc1C(c1ccnc2ccccc12)N1CCC(n2c(=O)[nH]c3ccccc32)CC1` (stereo not drawn), the inhibition was inactive: -0.02%.

`CCOc1ncccc1C(=O)NCC1(N2CCOCC2)CCCCC1`: the inhibition is inactive: -1.02%.

Regarding `CC(C)(C)OC(=O)N1CCC(Nc2ccccc2)CC1`, the inhibition was inactive: -3.77%.

As for `O=c1[nH]c2ccccc2n1C1CCN(C(c2cc3ccccc3o2)c2nnnn2C2CCCC2)CC1` (stereo not drawn), the inhibition is inactive: 6.71%.

The inhibition is the change of the read-out against control, counted positive when it falls.

The record behind these values is PubChem BioAssay AID1117264 (The Scripps Research Institute Molecular Screening Center, 2014).
